{"source": "patent US20150086555A1", "about": "(THERACLONE SCIENCES, published 2015)", "key": {"[1]": {"molecular_target": "hemagglutinin on whole influenza A virions, A/Solomon Islands/3/06 H1N1 (Influenza A virus A/Solomon …)"}, "[2]": {"molecular_target": "hemagglutinin on whole influenza A virions, A/Wisconsin/67/05 H3N2 (Influenza A virus …)"}, "[3]": {"molecular_target": "Hemagglutinin (HA) of influenza A virus A/Japan/305/57 H2N2, on whole virions (Influenza A virus A/Japan/305/1957 …)"}, "[4]": {"molecular_target": "Hemagglutinin (HA) of influenza A virus A/Solomon Islands/3/06 H1N1, on whole virions (Influenza A virus A/Solomon …)"}, "[5]": {"molecular_target": "T1, Hemagglutinin (HA) of influenza A virus A/Wisconsin/67/05 H3N2, on whole virions (Influenza A virus A/Wisconsin/67/2005 …)", "T1 construct": "whole, on cells", "test": "ELISA on coated inactivated whole virions; transfection supernatant, set 5"}}, "data": [{"binder": "TCN-544 (5082_A19) (antibody, V domains shown) VH: QVQLQESGPGLVKPSETLSLTCTVSRGSIGHYFWSWIRQPPGKGLEWIGYISYSGSTKYNPSLRSRVTISVDTSKNQFSLNLNSVTATDTALYYCAREDYDILTGAGPGMEVWGQGTTVTVSS VL: QSMLTQPPSASGTPGQRVTISCSGSSSNIGSNTVNWFKHLPGTAPKLLIYRNDLRPSGVPDRFSGSKSGTSASLAISGLQSEDEADYYCATWDDSLNGFYVFGTGTKVTVL", "note": "[TCN-544 (5082_A19), listing 1 of 2 here]", "values": [{"measurement": "ELISA: Virus Binding (OD450)", "setting": "[1]", "value": 0.08, "unit": "OD450"}, {"measurement": "ELISA: Virus Binding (OD450)", "setting": "[2]", "value": 3.6, "unit": "OD450"}]}, {"binder": "TCN-545 (5082_I15) (antibody, V domains shown) VH: QVQLQQWGAGLLKPSETLSLSCAVFGGSFSDYYWTWIRQPPGKGLEWIGEIKHSGRTNYNPSLESRVTISVDTSKNQFSLKLSSVTAADTAIYYCARGTDPDTEGYCRSGSCSAFDFWGQGTLVTVSS VL: EIVLTQSPGTLSLSPGERATLSCRASHFVNYRSLAWYQQTPGQVPRLLIYGASTRATGIPDRFSGSGSGTDFTLTISRLEPEDFAVYFCQQYGGSPRYTFGQGTRLEIK", "values": [{"measurement": "ELISA: Virus Binding (OD450)", "setting": "[1]", "value": 3.43, "unit": "OD450"}, {"measurement": "ELISA: Virus Binding (OD450)", "setting": "[2]", "value": 3.64, "unit": "OD450"}]}, {"binder": "TCN-550 (5096_F06) (antibody, V domains shown) VH: QVQLQESGPGLVKPSETLSLTCTVSGASINSHYWSWIRQPPGKGLEWIGYVYYSGSTTYNPSLKSRVTLSVDTSKNQFSLNLSSVTAADTAFYYCARHPYDVLTGSGDWFDPWGQGTLVTVSS VL: SYVLTQAPSVSVAPGQTARITCGGNAIGSKKVHWYQHKAGQAPVLVVYDDTDRPSGIPERFSGSNSWSTATLTINRVEAGDEADYYCQVWDFTIDHVVFGGGTKLTVL", "note": "[TCN-550 (5096_F06), listing 1 of 2 here]", "values": [{"measurement": "ELISA: Virus Binding (OD450)", "setting": "[1]", "value": 0.06, "unit": "OD450"}, {"measurement": "ELISA: Virus Binding (OD450)", "setting": "[2]", "value": 3.63, "unit": "OD450"}]}, {"binder": "TCN-551 (5243_D01) (antibody, V domains shown) VH: EVQLVQSGSEVKKPGESLKISCKGSGYSFSNYWIGWVRHMPGKGLEWMGIIYPGDSDTRYSPSFQGQVTMSADKSSSTVYLQWSSLKASDTAIYYCARRGGHSFGYGSGGDTHSEFDSWGQGTLVTVSS VL: QSVLTQSPSVSAAPGQKVTISCSGSDSNIGDYFVCWYQHLPGKPPQLLIYENNKRPSGIPDRFSGSKSGTSATLGITGIQTGDEADYYCATWDGSLSAWVFGGGTKLTVL", "values": [{"measurement": "ELISA: Virus Binding (OD450)", "setting": "[1]", "value": 3.63, "unit": "OD450"}, {"measurement": "ELISA: Virus Binding (OD450)", "setting": "[2]", "value": 0.26, "unit": "OD450"}]}, {"binder": "TCN-554 (5277_M05) (antibody, V domains shown) VH: QVQLVQSGADLKKPGASVKVSCKASGYTFTDYYIHWVRQAPGQGLEWMGWINPESGDTKYAQKFQGRVTMTRDTSITTAYMELGRLRSDDTAVYYCARDVSTTWSWFAPWGQGTLVTVSS VL: DIVMTQSPDSLAVSLGERATINCRSSQSIFHNSNNENYLAWYQQKPGQPPKLLIYWASTRESGVPDRFSGSGSGTDFTLTISSLQAEDVAVYFCQQYYNAPLTFGGGTKVEIK", "values": [{"measurement": "ELISA: Virus Binding (OD450)", "setting": "[1]", "value": 0.86, "unit": "OD450"}, {"measurement": "ELISA: Virus Binding (OD450)", "setting": "[2]", "value": 3.57, "unit": "OD450"}]}, {"binder": "TCN-555 (5246_L16) (antibody, V domains shown) VH: QVQLVQSGAEVKRPGSSVKVSCTASGGIFRKNAISWVRQAPGQGLEWMGGIIAVFNTANYAQKFQNRVKITADESGNTAYMELSSLTSDDTAVYYCASHPKYFYGSGSYPDFWGQGTLVTVSS VL: QSALTQPRSVSGSPGQSITISCTGGSSDIGASNSVSWYQQHPGKAPKLVIFDVTERPSGVPHRFSGSKSGNTASLTVSGLQPDDEADYFCCAYGGKYLVVFGGGTKVTVL", "values": [{"measurement": "ELISA: Virus Binding (OD450)", "setting": "[1]", "value": 3.63, "unit": "OD450"}, {"measurement": "ELISA: Virus Binding (OD450)", "setting": "[2]", "value": 0.11, "unit": "OD450"}]}, {"binder": "TCN-539 (5056_A08) (antibody, V domains shown) VH: QVQLVESGGGVVQPGRSLRLSCAASEITFITYAMHWVRQAPGKGLEWVALISDDGSNKFYADSVKGRFTISRDNSKNTLYLQMNSLRAEDTAAYYCAREGVYFDSGTYRGYFDYWGQETLVTVSS VL: EIVLTQSPATLSLSPGERATLSCRASQSVSSYLAWYQQKPGQAPRLLIYDASNRATGIPARFSGSGSGTDFTLTISSLEPEDFAVYYCQQRSHWPPITFGQGTRLEIK", "values": [{"measurement": "ELISA virus binding (OD450)", "setting": "[3]", "value": 0.07, "unit": "OD450"}, {"measurement": "ELISA virus binding (OD450)", "setting": "[4]", "value": 0.07, "unit": "OD450"}, {"measurement": "ELISA virus binding (OD450)", "setting": "[5]", "value": 0.13, "unit": "OD450"}]}, {"binder": "TCN-540 (5060_F05) (antibody, V domains shown) VH: QVQLVQSGGGVVQPGRSLRLSCAASGFTFSSYAMHWVRQAPGKGLEWVAIISYDGNDQYYTDSVKGRFTISRDSSKVYLQMHRLRPEDTAVYYCAKEFETSGYFHGSFDYWGQGILVTVSS VL: QSALTQPASVSGSPGQSITISCTGTSSDVGGYNYVSWYQQHPGKAPKLLIYEVTNWPSGVSNRFSGSKSGNTASLTISGLQAEDEADYYCSSYAGSSTWVFGGGTRVTVL", "values": [{"measurement": "ELISA virus binding (OD450)", "setting": "[3]", "value": 3.61, "unit": "OD450"}, {"measurement": "ELISA virus binding (OD450)", "setting": "[4]", "value": 0.09, "unit": "OD450"}]}, {"binder": "TCN-542 (5079_A16) (antibody, V domains shown) VH: QVQLQESGPGLVKPSQTLSLTCTVSGGSISSGNYYWNWVRQHPGKGLEWIGYIYYRGSTFYNPSLKSRVTISIDTSKNQFSLRLSSVTAADTAVYYCAKDTRSSLDNYQYGMDVWGQGTTVTVSS VL: QTVVTQEPSLTVSPGGTVTLTCASSTGAVTSSYFPNWFQQKPGQAPRPLIYSTTIRHSWTPARFSGSLLGGKAALTLSGVQPEDEADYYCLLYSGGDPVAFGGGTKLTVL", "values": [{"measurement": "ELISA virus binding (OD450)", "setting": "[3]", "value": 0.07, "unit": "OD450"}, {"measurement": "ELISA virus binding (OD450)", "setting": "[4]", "value": 3.6, "unit": "OD450"}, {"measurement": "ELISA virus binding (OD450)", "setting": "[5]", "value": 0.23, "unit": "OD450"}]}, {"binder": "TCN-544 (5082_A19) (antibody, V domains shown) VH: QVQLQESGPGLVKPSETLSLTCTVSRGSIGHYFWSWIRQPPGKGLEWIGYISYSGSTKYNPSLRSRVTISVDTSKNQFSLNLNSVTATDTALYYCAREDYDILTGAGPGMEVWGQGTTVTVSS VL: QSMLTQPPSASGTPGQRVTISCSGSSSNIGSNTVNWFKHLPGTAPKLLIYRNDLRPSGVPDRFSGSKSGTSASLAISGLQSEDEADYYCATWDDSLNGFYVFGTGTKVTVL", "note": "[TCN-544 (5082_A19), listing 2 of 2 here]", "values": [{"measurement": "ELISA virus binding (OD450)", "setting": "[3]", "value": 0.07, "unit": "OD450"}, {"measurement": "ELISA virus binding (OD450)", "setting": "[4]", "value": 0.07, "unit": "OD450"}, {"measurement": "ELISA virus binding (OD450)", "setting": "[5]", "value": 3.65, "unit": "OD450"}]}, {"binder": "TCN-547 (5092_F11) (antibody, V domains shown) VH: QVQLQESGPGLVKPSQTLSLTCTVSGDSISSVDHYWSWIRQHPVKGLEWIGFMYYSASTYYNPSLKSRVTISTDTSKNQFSLRLSSVTAADTAVYYCARGTCAGDCSLHYYYYGLDVWGQGRTVTVSS VL: DIQMTQSPSSLSASVGDRVTITCRASQSISSYLNWYQHKPGKAPKVLMYAVSILQSGVPSRFSGSGSGADFTLTISSLQPEDFATYYCQQSYSSPLTFGGGTKVEIK", "values": [{"measurement": "ELISA virus binding (OD450)", "setting": "[3]", "value": 0.09, "unit": "OD450"}, {"measurement": "ELISA virus binding (OD450)", "setting": "[4]", "value": 0.09, "unit": "OD450"}, {"measurement": "ELISA virus binding (OD450)", "setting": "[5]", "value": 0.13, "unit": "OD450"}]}, {"binder": "TCN-548 (5092_P01) (antibody, V domains shown) VH: QVQLQESGPGLVKPSETLSLTCTVSSGPMSDYYWSWIRQPPGKGLEWIGHVSVSHGGRTKSNPSVMSRVTISVETSKNQFSLKLTSVTAADTAVYYCARLNYYDRSGYHSPDGPSNNWFDPWGQGTLVTVSS VL: DIVMTQSPDSLAVSLGERATINCKSSQSVLYSSNNKNYLAWYQQKPGQPPKLLIYWASTRESGVPDRISGSGSGADFTLTISSLQAEDVAVYYCQQYFATPRTFGQGTKVEIK", "values": [{"measurement": "ELISA virus binding (OD450)", "setting": "[3]", "value": 0.09, "unit": "OD450"}, {"measurement": "ELISA virus binding (OD450)", "setting": "[4]", "value": 0.13, "unit": "OD450"}, {"measurement": "ELISA virus binding (OD450)", "setting": "[5]", "value": 3.63, "unit": "OD450"}]}, {"binder": "TCN-549 (5092_P04) (antibody, V domains shown) VH: QVQLVQSGAEVKKPGASVKVSCKASGYTFTGYYMHWVRQAPGQGLEWMGWINPNSGDTNYAQKFQGRVTMTRDTSITTAYMELSSLRSDDTAVYYCARDSPYSSSWSFFDYWGQGPLVTVSS VL: DIVMTQSPDSLAVSLGERATINCKSSQSVLYSSNNKSHLAWYQQKPGQPPKLLIYWASTRESGVPDRFSGSGSGTDFTLIISSLQAEDVAVYYCQQYYFSPLTFGGGTKVEIK", "values": [{"measurement": "ELISA virus binding (OD450)", "setting": "[3]", "value": 0.08, "unit": "OD450"}, {"measurement": "ELISA virus binding (OD450)", "setting": "[4]", "value": 0.09, "unit": "OD450"}, {"measurement": "ELISA virus binding (OD450)", "setting": "[5]", "value": 0.46, "unit": "OD450"}]}, {"binder": "TCN-550 (5096_F06) (antibody, V domains shown) VH: QVQLQESGPGLVKPSETLSLTCTVSGASINSHYWSWIRQPPGKGLEWIGYVYYSGSTTYNPSLKSRVTLSVDTSKNQFSLNLSSVTAADTAFYYCARHPYDVLTGSGDWFDPWGQGTLVTVSS VL: SYVLTQAPSVSVAPGQTARITCGGNAIGSKKVHWYQHKAGQAPVLVVYDDTDRPSGIPERFSGSNSWSTATLTINRVEAGDEADYYCQVWDFTIDHVVFGGGTKLTVL", "note": "[TCN-550 (5096_F06), listing 2 of 2 here]", "values": [{"measurement": "ELISA virus binding (OD450)", "setting": "[3]", "value": 0.08, "unit": "OD450"}, {"measurement": "ELISA virus binding (OD450)", "setting": "[4]", "value": 0.13, "unit": "OD450"}, {"measurement": "ELISA virus binding (OD450)", "setting": "[5]", "value": 3.62, "unit": "OD450"}]}]}
